This is an account of results in PubChem BioAssay AID588727 (Southern Research Specialized Biocontainment Screening …, 2011).

Some of the results follow. Potency and affinity values are given separately. Calls of active or inactive are those of the source. No rule for the calls is given here.

The assay in a line: inhibitors of VEEV TC-83 cytopathic effect, confirmation, Vero cells (AID 588727). Particulars: VEEV TC-83 cytopathic effect inhibition, at 20 µM; active compounds read high. A general note: Protection from cytopathic effect is a common read-out in antiviral testing.
The inhibition is how much of the control response was suppressed. For `CC1(CBr)Cn2c(nc3ccccc3c2=O)S1` (stereo not given), the inhibition was inactive: 1.04%.
On to `CC(C)/C=N\N=C(\N)N[N+](=O)[O-]`, for which the inhibition is inactive: 0.76%.
For the compound `CN(C(=O)Cc1ccc(Cl)c(Cl)c1)[C@@H]1CCCC[C@H]1N1CCCC1`, the inhibition is inactive: 0.59%.
The result for `COc1ccccc1CNC(=O)COC(=O)C(O)(c1ccccc1)c1ccccc1` reads inactive: 0.57%; that for `CC(C)(C)C(=O)NC(Sc1ncccn1)C(Cl)(Cl)Cl` (stereo not given), “inactive”; that for `O=P1(N(CCCl)CCCl)NCCC(C(F)(F)F)O1` (stereo not given), “inactive”.
Take `Clc1n[nH]nc1-c1nn[nH][15n]1`: the inhibition was inactive: 1.09%.
The result for `CCOP(=O)(Nc1ccc(C)cn1)OCC` reads inactive: 0.61%.
The same measure for `CCOP(=O)(NC(=NC(C)c1ccccc1)NC(C)c1ccccc1)OCC` (stereo not given): “inactive”.
The same measure for `O=P1(Nc2ccccn2)COc2ccccc2OC1`: inactive: 3.14%; for `CCC1=CC2Cc3nc4ccc(Cl)cc4c(N)c3C(C1)C2` (stereo not given): inactive: 4.09%; for `O=[As](O)(c1cccs1)c1cccs1`: “inactive”.
Turning to `Cc1ccc(OCC(=O)OC2CN3CCC2CC3)cc1` (stereo not given), the inhibition is inactive: 0.56%.
For `O=P1(Nc2ccc(Br)cn2)COc2ccccc2OC1`, the inhibition result is “inactive”.
Regarding `NS(=O)(=O)c1cccc(NC(=O)COC(=O)C(O)(c2ccccc2)c2ccccc2)c1`, the inhibition is inactive: 4.18%.
The same measure for `Nc1cccc([As](=O)(O)c2ccccc2)c1`: inactive: 0.32%; for `O=P1(Nc2ncccn2)COc2ccccc2OC1`: inactive: 4.58%; for `CCCC1OP(=O)(Nc2ccccc2)OCC1CC` (stereo not given): inactive: 0.11%.
The same measure for `O=C(/C=C/c1ccccc1)OC1CN2CCC1CC2` (stereo not given): inactive: 1.98%; for `CN(C)C1(CNC(=O)c2ccc(S(C)(=O)=O)cc2)CCCCC1`: inactive: 1.35%.
The result for `CC1CCC(C(C)C)C(OP(=O)(Nc2ccccn2)c2ccccc2)C1` (stereo not given) reads inactive: 8.89%; that for `Cc1ccc(C(=O)OC2CN3CCC2CC3)cc1` (stereo not given), inactive: 0.05%.
For `Cc1nn(-c2ccccc2)c2c1P(=O)(N1CCOCC1)N(C)C(c1ccccc1)=N2` (stereo not given), the inhibition was inactive: 1.26%.
Turning to `CN(C(=O)Cc1ccc(Cl)c(Cl)c1)[C@H]1CC[C@@]2(CCCO2)C[C@@H]1N1CCCC1`, the inhibition was inactive: 3.39%.
In the case of `O=[N+]([O-])c1ccc2c(c1)nnn2O`, the inhibition result was “inactive”.
The result for `CN(C)C(=O)c1cc([N+](=O)[O-])cc2c1-c1c(cc([N+](=O)[O-])cc1[N+](=O)[O-])C2=O` reads “inactive”; that for `CN(C(=O)Cc1ccccc1)[C@@H]1CC[C@]2(CCCO2)C[C@H]1N1CCCC1`, “inactive”; that for `CCOP1(=S)c2c(C)nn(CCC#N)c2N=C(c2ccc(F)cc2)N1C` (stereo not given), inactive: 0.29%.
On to `N#CCCN(C(=O)COC(=O)C(O)(c1ccccc1)c1ccccc1)c1ccc(F)cc1`, for which the inhibition is inactive: 0.7%.
Take `NC(=O)Nc1ccc([As](=O)(O)O)cc1`: the inhibition was inactive: 0.97%.
The same measure for `Nc1ccccc1[As](=O)(O)c1ccccc1`: inactive: 0.44%; for `O=C(O)COc1ccc([As](=O)(O)O)cc1[N+](=O)[O-]`: inactive: 0.46%; for `CS(=O)(=O)c1cc([N+](=O)[O-])c2no[n+]([O-])c2c1`: inactive: 0.56%.
Regarding `O=P(Nc1nccs1)(Oc1ccccc1)Oc1ccccc1`, the inhibition was inactive: 0.58%.
The same measure for `O=P(Nc1nccs1)(c1ccccc1)c1nc2ccccc2s1` (stereo not given): inactive: 3.99%; for `CCOP1(=S)c2c(C)nn(CCC#N)c2N=C(c2ccccc2F)N1C` (stereo not given): inactive: 0.84%.
The same measure for `CCOP(=O)(Nc1cccc2ccccc12)OCC`: inactive: 0.49%; for `COc1cc(C2NCCC3(OCCO3)C2(C)C)cc(OC)c1OC` (stereo not given): inactive: 1.04%.
The result for `CCCOP(=S)(Nc1nc(N)cc(=O)[nH]1)OCCC` reads inactive: 0.05%; that for `Nc1cccc2c([As](=O)(O)O)cccc12`, “inactive”.
Turning to `Cc1ccc(NCCc2c([N+](=O)[O-])cc([N+](=O)[O-])cc2[N+](=O)[O-])cc1`, the inhibition was inactive: 4.21%.
The same measure for `Cc1cccc(OCC(=O)OC2CN3CCC2CC3)c1` (stereo not given): inactive: 1.37%; for `O=[As](O)(c1cccc(O)c1)c1cccc(O)c1`: inactive: 1.14%.
The same measure for `CS(=O)(=O)c1ccc(Cl)c(NC(=O)COC(=O)C(O)(c2ccccc2)c2ccccc2)c1`: inactive: 1.44%; for `O=[As](O)(O)c1cccnc1`: “inactive”.
For the compound `COc1cc(C(=O)NCC2(N3CCOCC3)CCCCC2)cc(Cl)c1OC(C)C`, the inhibition is inactive: 0.22%.
As to `O=C(OC1CN2CCC1CC2)c1ccc(Cl)cc1` (stereo not given), the inhibition result is “inactive”.
`COc1ccc(N/C(=N/P(=O)(N2CCOCC2)N2CCOCC2)N2CCOCC2)cc1`: the inhibition entry is “inactive”.
For the compound `O=[N+]([O-])c1cc(Oc2ccc([N+](=O)[O-])cc2C(F)(F)F)cc([N+](=O)[O-])c1`, the inhibition was inactive: 2.86%.
Regarding `COc1cc(I)ccc1[As](=O)(O)O`, the inhibition is inactive: 1.13%.
As for `COc1ccc2nc(NP(=O)(c3ccccc3)c3ccccc3)sc2c1`, the inhibition is inactive: 5.48%.
`O=P1(N(CCCl)CCCl)OCCCN1CCCl` (stereo not given): the inhibition was inactive: 2.18%.
For the compound `O=P1(N(CCCl)CCCl)Nc2ccccc2N1`, the inhibition is inactive: 1.56%.
For `Cc1cc(=O)[nH]c(N[N+](=O)[O-])n1`, the inhibition is inactive: 1.16%.
As to `O=C(OC1CN2CCC1CC2)C12CC3CC(CC(C3)C1)C2` (stereo not given), the inhibition entry was “inactive”.
The same measure for `Cc1c2c(nc3ccccc13)SC(C(Cl)Cl)C2` (stereo not given): inactive: 0.9%; for `O=[N+]([O-])c1cc([N+](=O)[O-])c(-c2ccn[nH]2)s1`: inactive: 1.83%; for `CC(C)NC(=O)NP(=O)(Oc1ccccc1)Oc1ccccc1`: inactive: 0.62%.
With `O=C(OC1CN2CCC1CC2)c1cccc2[nH]cnc12` (stereo not given), the inhibition is inactive: 0.92%.
The result for `CCN(CC)C(=S)SC(NC=O)C(Cl)(Cl)Cl` (stereo not given) reads inactive: 9.53%.
As to `COC(=O)C1(C)COP(=O)(N2CCCCCC2)OC1` (stereo not given), the inhibition was inactive: 0.58%.
As to `CC(C)c1ccc(OP(=O)(Nc2ccccn2)Oc2ccccc2F)cc1` (stereo not given), the inhibition is inactive: 4.84%.
The same measure for `ClCCSc1nnc(-c2cccnc2)o1`: inactive: 1.01%.
Regarding `Cc1ccc2nc3c(c(C)c2c1)CC(C(Cl)Cl)S3` (stereo not given), the inhibition entry is “inactive”.
The same measure for `Cc1ccc(OP(=O)(Nc2ccc([N+](=O)[O-])cn2)Oc2ccc(C)cc2)cc1`: “inactive”; for `O=[N+]([O-])c1ccc(-c2cc([N+](=O)[O-])c(O)c([N+](=O)[O-])c2)cc1`: inactive: 9.47%; for `COc1cc(C(=O)NCC2(N3CCOCC3)CCCCC2)ccc1OCC(C)C`: “inactive”.
The result for `C[As](=O)(O)c1cccc(C(=O)O)c1` reads inactive: 0.85%.
The same measure for `O=[As](O)(c1ccc(O)cc1)c1ccccc1O`: inactive: 0.5%; for `O=[N+]([O-])c1ccc(Nc2ccc(Oc3ccc([N+](=O)[O-])cc3[N+](=O)[O-])cc2)c([N+](=O)[O-])c1`: inactive: 0.82%.
For the compound `O=P(Nc1ccccn1)(c1cccc2ccccc12)c1cccc2ccccc12`, the inhibition is inactive: 2.45%.
As for `Cc1cc(SC(NC=O)C(Cl)(Cl)Cl)ncn1` (stereo not given), the inhibition is inactive: 0.45%.
For `CCOC(=O)Nc1cccc([As](=O)(O)O)c1`, the inhibition result was “inactive”.
With `Cc1cc(SC(NC(=O)c2ccccc2)C(Cl)(Cl)Cl)nc(C(C)C)n1` (stereo not given), the inhibition is inactive: 1.04%.
The result for `CCCCOc1ccc(C(=O)NCC2(N3CCCCC3)CCCCC2)cc1OC` reads inactive: 0.15%.
The same measure for `COP(=O)(OC)N1CC1c1ccccc1` (stereo not given): inactive: 0.76%; for `CC1CCNP(=O)(N(CCCl)CCCl)O1` (stereo not given): inactive: 0.1%; for `CCOC(=O)Nc1ccc([As](=O)(O)O)c(O)c1`: “inactive”.
The result for `O=C(O)C(O)c1ccc(N(CCCl)CCCl)cc1` (stereo not given) reads inactive: 0.32%; that for `CCC(C)N(CC(C)C)C(=S)SC(NC(C)=O)C(Cl)(Cl)Cl` (stereo not given), inactive: 4.73%; that for `CCOC(=O)c1ccc(NC(=O)C(C)(CCl)SC)cc1` (stereo not given), inactive: 1.3%.
For `O=C(OC1CN2CCC1CC2)c1cccc([N+](=O)[O-])c1` (stereo not given), the inhibition is inactive: 1.1%.
The same measure for `O=C(Nc1ccncc1[N+](=O)[O-])c1ccc([N+](=O)[O-])cc1[N+](=O)[O-]`: inactive: 3.1%; for `O=C(COc1ccccc1)OC1CN2CCC1CC2` (stereo not given): “inactive”.
The same measure for `O=C(O)C(=O)c1ccc(N(CCCl)CCCl)cc1`: inactive: 1.26%.
The same measure for `COP1(=S)c2c(C)nn(CCC#N)c2N=C(c2ccc(F)cc2)N1C` (stereo not given): inactive: 0.57%; for `CN(C)C(=O)OCCc1n(C)cc[n+]1C`: inactive: 3.22%; for `CC(C)c1nc(Nc2ccccc2)n(P(=O)(N(C)C)N(C)C)n1`: “inactive”.
For `CC(C)=N/N=C(\N)N[N+](=O)[O-]`, the inhibition entry was “inactive”.
Take `CC1CCN(C(=O)Oc2c(Cl)cc(Cl)c3cccnc23)CC1`: the inhibition was inactive: 0.06%.
The same measure for `c1cc(-c2nn[nH]n2)ccc1-c1nn[nH]n1`: inactive: 0.58%; for `C[N+]1=C2C=CC=CC=C2SC12C([N+](=O)[O-])=CC([N+](=O)[O-])=C[C-]2[N+](=O)[O-]` (stereo not given): “inactive”.
The result for `Nc1ccc([As](=O)(O)c2ccc(N)cc2)cc1` reads “inactive”; that for `CCN(/C(=N/P(=O)(N1CCOCC1)N1CCOCC1)N1CCOCC1)c1ccc(OC)cc1`, inactive: 0.65%.
On to `O=[N+]([O-])c1cccc2n[nH]nc12`, for which the inhibition result was “inactive”.
For `CC(=O)N1C2C3N(C(C)=O)C1C1N(C(C)=O)C(C(N1C(C)=O)N3C(C)=O)N2C(C)=O`, the inhibition is inactive: 0.55%.
On to `CCc1nc2c(n1)c1c(non1O)c1c2no[n+]1[O-]`, for which the inhibition was inactive: 1.33%.
The result for `O=[N+]([O-])c1cc([N+](=O)[O-])c(CCNc2ccccc2)c([N+](=O)[O-])c1` reads inactive: 2.69%; that for `Cc1ccc(NP(=O)(Oc2ccccc2)Oc2ccccc2)nc1`, inactive: 1.31%; that for `COc1ccc(C2=NCC(CBr)S2)cc1` (stereo not given), inactive: 0.17%.
The same measure for `COC(=O)C1(C)COP(=O)(Nc2ccccc2)OC1` (stereo not given): inactive: 0.85%; for `O=[N+]([O-])c1cccc(NC2=NCC(CBr)S2)c1` (stereo not given): inactive: 1.3%; for `O=C(O)CNc1ccc([As](=O)(O)O)cc1`: inactive: 0.61%.
The result for `CC(C)(C)C(=O)NC(Sc1ccncn1)C(Cl)(Cl)Cl` (stereo not given) reads inactive: 0.54%; that for `O=[N+]([O-])c1ncn(CCn2ncnc2[N+](=O)[O-])n1`, inactive: 1.73%.
